Residue numbers refer to the chain shown, from its start. Some of the results follow. Env chains of viruses from a treatment-interruption trial, translated from the printed DNA. IC50 / IC80 of two broadly neutralizing antibodies; lower = more sensitive virus; >50 µg/ml means not reached and <0.001 µg/ml is below the lowest dose. No active / inactive call.

The target of test [1] is antibody 10-1074. Put plainly: neutralization IC50; higher = virus less sensitive to the antibody. How it is done:
(§1)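 Pseudovirus bearing the Env chain mixed with antibody, from 50 µg/ml in fivefold dilutions, on TZM-bl reporter cells, in duplicate.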

Test [2] concerns the target antibody 3BNC117. The description is as above. How it is done:
as §1

The target of test [3] is antibody 10-1074. Briefly: neutralization IC80; higher = virus less sensitive to the antibody. How it is done: as §1
Test [4] concerns the target antibody 3BNC117. The test is described as above. How it is done: as §1

B1: HIV-1 Env, rebound clone, placebo arm (protein)
chain: MRVRGILRNYPQWWIWGILGFWMVMICNVVGNLWVTVYYGVPVWKDAKTTLFCASDAKAYDKEVHNVWATHACVPTDPNPQELVLGNVTENFNMWKNDMVDQMHEDVISLWDQSLKPCVKLTPLCVTLECVNANVTTVNVTNENINGTEEIKNCTFNATTEINDRKTREHALFYKLDIVPLETNHSSTKYRLINCNTSAVTQACPKVNFDPIPIHYCAPAGYAILKCNNKTFNGTGPCQNVSTVQCTHGIKPVVSTQLLLNGSLAEGEIIIRSENLTNNAKTIIVHLNDSIEITCIRPNNNTRKSIRIGPGQTFYATGDIIGDIRQAHCNISRNKWNQTLQRVSKKLGEHFPNATTIKFTSPSGGDLEIITHSFNCRGEFFYCNTSQLFNRTYMPNDTGSDSTGNSSDITDITIPCRIKQFINMWQGVGRAIYAPPIAGNITCKSNITGILLTRDGGRTNDNSTETFRPGGGDMRDNWRSELYKYKVVEIKPLGIAPTEAKRRVVAREKRAAGLGAVIFGFLGAAGSTMGAASMALTVQARQLLSGIVQQQSNLLRAIEAQQHMLQLTVWGIKQLQARVLAVERYLKDQRLLGIWGCSGKLICPTTVPWNSSWSNRSLADIWENMTWMQWDKEIDNYTNIIYSLLEESQNQQERNEQELLALDSWNSLWTWFSISNWLWYIKIFIMIVGGLIGLRIIFAVLSIVNRVRQGYSPLSFQTLTPNPREPDRLRGIEEEGGEQDRDRSIRLVNGFLALVWEDLRSLCLFSYHRLRDFILVTARAVELLGRSSYKGLQRGWEALKYLGSLVQYWGLELKKSAISLFDTLAIVIAGWTDRVIELGQRIGRTILHIPRRIRQGFERALL
Take B1: the “neutralization IC50” value came out at 0.011 mg/L with antibody 10-1074 [1] and 0.034 mg/L with antibody 3BNC117 [2]. Further, the entries for the “neutralization IC80” value in the test with antibody 10-1074 [3] and with antibody 3BNC117 [4] were 0.027 mg/L and 0.099 mg/L, respectively.

B2: HIV-1 Env, rebound clone, placebo arm (protein)
chain: B1 chain with A223T
Regarding B2, the results for the “neutralization IC50” value with antibody 10-1074 [1] and with antibody 3BNC117 [2] were 0.009 mg/L and 0.03 mg/L, respectively. Besides, the “neutralization IC80” value turned out to be 0.026 mg/L with antibody 10-1074 [3] and 0.119 mg/L with antibody 3BNC117 [4].

B3: HIV-1 Env, rebound clone, placebo arm (protein)
chain: B1 chain with N639D, T845A
As for B3, the “neutralization IC50” value with antibody 10-1074 [1] is 0.009 mg/L; in the test with antibody 3BNC117 [2], 0.032 mg/L. The “neutralization IC80” value with antibody 10-1074 [3] is 0.028 mg/L; with antibody 3BNC117 [4], 0.132 mg/L.

B4: HIV-1 Env, rebound clone, placebo arm (protein)
chain: B1 chain with G262S
For B4, the results for the “neutralization IC50” value in the test with antibody 10-1074 [1] and with antibody 3BNC117 [2] were 0.008 mg/L and 0.025 mg/L, respectively. The entries for the “neutralization IC80” value with antibody 10-1074 [3] and in the test with antibody 3BNC117 [4] were 0.029 mg/L and 0.076 mg/L, respectively.

B5: HIV-1 Env, rebound clone, placebo arm (protein)
chain: MIVMGMKRNWQQWWRGGILLLGMLMMICSAEDNAWVTVYYGVPVWREANVTLFCASDAKAYDTEIHNVWATHACVPTDPSPQEIKLENVTENFNMWKNDMVEQMHEDIISLWDQSLKPCVKLTPLCVTLNCTDYLGSNATNSTSGNNGTISNNITIEDSEKGEIKNCSFNVTTGIRDKMNKEYALLYKTDLVSIDNDNTSYRLISCNTSVITQACPKVTFEPIPIHYCAPAGFAILKCKDKKFNGTGPCKNVSTVQCTHGIRPVVSTQLLLNGSLAEEDVVIRSANFTNNAKVIIVQLNETVEINCTRPNNNTRKGINIGPGRAWYTIKDIVGDIRQAHCNISRPKWNRALEKIVEKLREQFGVNKTIVFNQSSGGDPEIVMHHFNCQGEFFYCNTTGLFNTRWNDTWENYTAGQGNNETITLPCRIRQIVNLWQEVGKAMYAPPIRGYINCSSNITGLLLVRDGGIKNSTNDTDNNTEIFRPGGGDMRDNWRSELYKYKVVQVEPVGIAPTRAKRRVVQREKRAVTLGAMFLGFLGTAGSTMGAASLTLTVQVRQLLSGIVQQQNNLLRAIEAQQHLLQLTVWGIKQLQARVLAVERYLRDQQILGIWGCSGKLICTTAVPWNTSWSNKSVDHIWGNMTWMQWEREIENYTGVIYKLLEESQNQQEKNEQDLLELDKWASLWTWFDITHWLWYIRLFIMIVGGLIGLRIVFAVFSLVNRVRQGYSPLSFQTHLPAPRGPDRPEGIEEEGGEPDRGRSVRLVNGFLALIWDDLRSLCLFSYHRLRDLLLIVTRIVELLGRRGWEAIKYLWNLLQYWSQELKNSAVSLLNAFAIAVAEGTDRVIEIIQGAFRAIIHIPRRIRQGLERSLL
For B5, the figures for the “neutralization IC50” value with antibody 10-1074 [1] and with antibody 3BNC117 [2] were 0.258 mg/L and 0.285 mg/L, respectively. Besides, the “neutralization IC80” value was determined as 0.93 mg/L with antibody 10-1074 [3] and 1.8 mg/L in the test with antibody 3BNC117 [4].

B6: HIV-1 Env, rebound clone, placebo arm (protein)
chain: B5 chain with I65V, T402G, R403T
As to B6, the entries for the “neutralization IC50” value with antibody 10-1074 [1] and with antibody 3BNC117 [2] were 0.238 mg/L and 0.251 mg/L, respectively. Besides, the “neutralization IC80” value with antibody 10-1074 [3] worked out at 0.857 mg/L; with antibody 3BNC117 [4] it was 0.938 mg/L.
